# Reference: paper PMC6941876, “White Spot Syndrome Virus Establishes a Novel IE1/JNK/c-Jun Positive Feedback Loop to Drive Replication”
# Construct, isoform or probe ends are uncertain for at least one entry. At least one verdict was read from the data and is not stated in words by the source. Tags and fusion partners may be left off the protein sequences shown.
# Biological target: T1, rLvc-Jun (Litopenaeus vannamei) (UniProt A0A0A7W5M9)
# T1 sequence (looked up, limits assumed): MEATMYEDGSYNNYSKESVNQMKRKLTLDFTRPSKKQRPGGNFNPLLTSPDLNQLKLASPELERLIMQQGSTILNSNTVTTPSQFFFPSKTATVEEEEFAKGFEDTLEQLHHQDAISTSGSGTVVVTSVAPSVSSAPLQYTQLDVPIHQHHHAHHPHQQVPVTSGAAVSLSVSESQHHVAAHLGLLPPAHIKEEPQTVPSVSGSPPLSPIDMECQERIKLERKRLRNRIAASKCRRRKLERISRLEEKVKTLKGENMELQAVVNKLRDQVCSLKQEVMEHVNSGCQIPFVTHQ
# Assay: competition with a labelled probe
# Settings: unlabeled WT competitor reduces shift; EMSA with biotin-labeled probes; recombinant protein; protein details: GST tag removed with enterokinase; label: biotin (probe), unlabeled as competitor
sequence,measurement,value
GGAATTTCCTTGTTACTCATTTATTCCTAGA (double strand) [IE1-AP-1-2 probe],binding result,binds
